Anti-infective test results gathered from many reports (values: NIAID ChemDB through PubChem).

Common to all: whole-cell or culture tests; species: Mycobacterium avium complex

Rows are shuffled and stem from different studies. An empty or dashed field is not shown. MIC50, MIC90 and the like: level of inhibition, or share of isolates inhibited. a–b is a range or a potency band.

{"smiles": "CN[C@@H]1[C@@H](O)[C@@H](O[C@@H]2[C@@H](O)[C@H](O[C@H]3O[C@H](CN)CC[C@H]3N)[C@@H](N)C[C@H]2N)OC[C@]1(C)O", "strain or isolate": "Isolate 122", "measure": "MIC", "value": "12.5 µg/mL"}
{"smiles": "CC(C)N=c1cc2n(-c3ccc(Cl)cc3)c3ccccc3nc-2cc1Nc1ccc(Cl)cc1", "strain or isolate": "551/HIV+", "measure": "MIC", "value": "0.25 µg/mL"}
{"smiles": "N[C@@H]1CN(c2c(F)cc3c(=O)c(C(=O)O)cn([C@@H]4C[C@@H]4F)c3c2Cl)CC12CC2", "strain or isolate": "20 strains", "measure": "MIC50", "value": "1.56 µg/mL"}
{"smiles": "CO[C@H]1/C=C/O[C@@]2(C)Oc3c(C)c(O)c4c(O)c(c(/C=N/N5CCN(C)CC5)c(O)c4c3C2=O)NC(=O)/C(C)=C\\C=C\\[C@H](C)[C@H](O)[C@@H](C)[C@@H](O)[C@@H](C)[C@H](OC(C)=O)[C@@H]1C", "strain or isolate": "20 strains", "measure": "MIC50", "value": "50 µg/mL"}
{"smiles": "CN[C@@H]1[C@H](O[C@H]2[C@H](O[C@H]3[C@H](O)[C@@H](O)[C@H](N=C(N)N)[C@@H](O)[C@@H]3N=C(N)N)O[C@@H](C)[C@]2(O)C=O)O[C@@H](CO)[C@H](O)[C@H]1O", "strain or isolate": "Isolate C-27", "measure": "MIC", "value": "400 µg/mL"}
{"smiles": "C[C@H]1COc2c(N3CCN(C)CC3)c(F)cc3c(=O)c(C(=O)O)cn1c23", "strain or isolate": "20 strains", "measure": "MIC50", "value": "6.25 µg/mL"}
{"smiles": "C[C@@H]1CN(c2c(F)c(N)c3c(=O)c(C(=O)O)cn(C4CC4)c3c2F)C[C@H](C)N1", "measure": "MIC90", "value": "2–4 µg/mL"}
{"smiles": "FC(F)(F)c1cccc(CSc2nc3ccccc3[nH]2)c1", "strain or isolate": "MY330/88", "measure": "MIC", "value": "62 µM"}
{"smiles": "CN(C)[C@@H]1C(=O)C(C(N)=O)=C(O)[C@@]2(O)C(=O)C3=C(O)c4c(O)cccc4[C@@](C)(O)[C@H]3C[C@@H]12", "strain or isolate": "31 strains", "measure": "MIC", "value": "8 µg/mL"}
{"smiles": "CCC1CCN(c2c(F)cc3c(=O)c(C(=O)O)cn(C4CC4)c3c2F)C1", "measure": "MIC50", "value": "2 µg/mL"}
{"smiles": "C[C@@H]1CN(c2c(F)c(N)c3c(=O)c(C(=O)O)cn(C4CC4)c3c2F)C[C@H](C)N1", "measure": "MIC", "value": "0.5 µg/mL"}
{"smiles": "c1ccc(CCSc2nc3ccccc3[nH]2)cc1", "strain or isolate": "MY330/88", "measure": "MIC", "value": ">125 µM"}
{"smiles": "CC[C@H]1OC(=O)[C@H](C)C(=O)[C@H](C)[C@@H](O[C@@H]2O[C@H](C)C[C@H](N(C)C)[C@H]2O)[C@](C)(OC)C[C@@H](C)C(=O)[C@H](C)[C@H]2N(CCCCn3cnc(-c4cccnc4)c3)C(=O)O[C@]12C", "strain or isolate": "24 isolates (HIV+)", "measure": "MIC50", "value": "128 µg/mL"}
{"smiles": "CN(C)c1cc(NC(=O)CNC(C)(C)C)c(O)c2c1C[C@H]1C[C@H]3[C@H](N(C)C)C(=O)C(C(N)=O)=C(O)[C@@]3(O)C(=O)C1=C2O", "strain or isolate": "11 strains", "measure": "MIC90", "value": ">32 µg/mL"}
{"smiles": "NC[C@H]1O[C@H](O[C@H]2[C@H](O)[C@@H](O[C@H]3O[C@H](CO)[C@@H](O)[C@H](N)[C@H]3O)[C@H](N)C[C@@H]2N)[C@H](N)[C@@H](O)[C@@H]1O", "strain or isolate": "TMC 1406", "measure": "MIC", "value": "0.1 µg/mL"}
{"smiles": "CCCCCSc1nc2ccccc2[nH]1", "strain or isolate": "MY330/88", "measure": "MIC", "value": ">62 µM"}
{"smiles": "CC[C@H]1OC(=O)[C@H](C)[C@@H](O[C@H]2C[C@@](C)(OC)[C@@H](O)[C@H](C)O2)[C@H](C)[C@@H](O[C@@H]2O[C@H](C)C[C@H](N(C)C)[C@H]2O)[C@](C)(OC)C[C@@H](C)C(=O)[C@H](C)[C@@H](O)[C@]1(C)O", "strain or isolate": "1171", "measure": "MIC", "value": "4 µg/mL"}
{"smiles": "CN[C@@H]1[C@H](O[C@H]2[C@H](O[C@H]3[C@H](O)[C@@H](O)[C@H](N=C(N)N)[C@@H](O)[C@@H]3N=C(N)N)O[C@@H](C)[C@]2(O)C=O)O[C@@H](CO)[C@H](O)[C@H]1O", "strain or isolate": "TMC 1406", "measure": "MIC", "value": "0.39 µg/mL"}
{"smiles": "CCN[C@@H]1C[C@H](N)[C@@H](O[C@H]2OC(CN)=CC[C@H]2N)[C@H](O)[C@H]1O[C@H]1OC[C@](C)(O)[C@H](NC)[C@H]1O", "strain or isolate": "31 strains", "measure": "MIC", "value": "16 µg/mL"}
{"smiles": "CO[C@H]1/C=C/O[C@@]2(C)Oc3c(C)c(O)c4c(O)c(c(/C=N/N5CCN(C)CC5)c(O)c4c3C2=O)NC(=O)/C(C)=C\\C=C\\[C@H](C)[C@H](O)[C@@H](C)[C@@H](O)[C@@H](C)[C@H](OC(C)=O)[C@@H]1C", "strain or isolate": "N-276", "measure": "MIC", "value": "1.56 µg/mL"}
{"smiles": "CN[C@@H]1[C@H](O[C@H]2[C@H](O[C@H]3[C@H](O)[C@@H](O)[C@H](N=C(N)N)[C@@H](O)[C@@H]3N=C(N)N)O[C@@H](C)[C@]2(O)C=O)O[C@@H](CO)[C@H](O)[C@H]1O", "strain or isolate": "N-966", "measure": "MIC", "value": "16 µg/mL"}
{"smiles": "CO[C@H]1/C=C/O[C@@]2(C)Oc3c(C)c(O)c4c(O)c(c(/C=N/N5CCN(C/C=C/c6ccccc6)CC5)c(O)c4c3C2=O)NC(=O)/C(C)=C\\C=C\\[C@H](C)[C@H](O)[C@@H](C)[C@@H](O)[C@@H](C)[C@H](OC(C)=O)[C@@H]1C", "strain or isolate": "LR-25", "measure": "MIC", "value": "≤0.015 µg/mL"}
{"smiles": "CO[C@H]1/C=C/O[C@@]2(C)Oc3c(C)c(O)c4c(O)c(c(/C=N/N5CCN(C)CC5)c(O)c4c3C2=O)NC(=O)/C(C)=C\\C=C\\[C@H](C)[C@H](O)[C@@H](C)[C@@H](O)[C@@H](C)[C@H](OC(C)=O)[C@@H]1C", "strain or isolate": "N-444", "measure": "MIC", "value": "8 µg/mL"}
{"smiles": "C[C@H]1c2cccc(O)c2C(O)=C2C(=O)[C@]3(O)C(O)=C(C(N)=O)C(=O)[C@@H](N(C)C)[C@@H]3[C@@H](O)[C@@H]21", "strain or isolate": "11 strains", "measure": "MIC50", "value": "32 µg/mL"}
{"smiles": "CO[C@H]1/C=C/O[C@@]2(C)Oc3c(C)c(O)c4c(O)c(c(/C=N/N5CCN(C6CCCC6)CC5)c(O)c4c3C2=O)NC(=O)/C(C)=C\\C=C\\[C@H](C)[C@H](O)[C@@H](C)[C@@H](O)[C@@H](C)[C@H](OC(C)=O)[C@@H]1C", "strain or isolate": "Serotype 1", "measure": "MIC", "value": ">40 µg/mL"}
{"smiles": "NNC(=O)c1ccncc1", "strain or isolate": "20 strains", "measure": "MIC50", "value": "6.25 µg/mL"}
{"smiles": "CO/N=C(\\C(=O)N[C@@H]1C(=O)N2C(C(=O)O)=CCS[C@H]12)c1csc(N)n1", "strain or isolate": "31 strains", "measure": "MIC", "value": "128 µg/mL"}
{"smiles": "NCCC[C@H](N)CC(=O)N[C@H]1CNC(=O)[C@H]([C@H]2C[C@H](O)NC(N)=N2)NC(=O)/C(=C/NC(N)=O)NC(=O)[C@H](CO)NC(=O)[C@H](CO)NC1=O", "strain or isolate": "Isolate 64", "measure": "MIC", "value": "50 µg/mL"}
{"smiles": "NNC(=O)c1ccncc1", "strain or isolate": "1171", "measure": "MIC", "value": "4 µg/mL"}
{"smiles": "O=C(O)c1cn(C2CC2)c2c(F)c(N3CC4C(CO)C4C3)c(F)cc2c1=O", "measure": "MIC90", "value": "32 µg/mL"}
{"smiles": "COc1c(N2CCNC(C)C2)c(F)cc2c(=O)c(C(=O)O)cn(C3CC3)c12", "strain or isolate": "20 strains", "measure": "MIC90", "value": "6.25 µg/mL"}
{"smiles": "CC1(C)S[C@@H]2[C@H](NC(=O)[C@H](N)c3ccc(O)cc3)C(=O)N2[C@H]1C(=O)O", "strain or isolate": "31 strains", "measure": "MIC", "value": "16 µg/mL"}
{"smiles": "O=[N+]([O-])c1ccc(CSc2nc3ccccc3[nH]2)cc1", "strain or isolate": "MY330/88", "measure": "MIC", "value": "16 µM"}
{"smiles": "CC(C)N=c1cc2n(-c3ccc(Cl)cc3)c3ccccc3nc-2cc1Nc1ccc(Cl)cc1", "strain or isolate": "562/HIV+", "measure": "MIC", "value": "0.12 µg/mL"}
{"smiles": "NC[C@@H]1O[C@H](O[C@H]2[C@@H](O)[C@H](O[C@@H]3[C@@H](O)[C@H](N)C[C@H](N)[C@H]3O[C@H]3O[C@H](CO)[C@@H](O)[C@H](O)[C@H]3N)O[C@@H]2CO)[C@H](N)[C@@H](O)[C@@H]1O", "strain or isolate": "Isolate 135", "measure": "MIC", "value": "25 µg/mL"}
{"smiles": "Fc1cccc(Cl)c1CSc1nc2ccccc2[nH]1", "strain or isolate": "MY330/88", "measure": "MIC", "value": "16 µM"}
{"smiles": "CC(N)C1CCN(c2nc3c(cc2F)c(=O)c(C(=O)O)cn3C2CC2)C1", "measure": "MIC50", "value": "16 µg/mL"}
{"smiles": "FC(F)(F)c1ccc(CSc2nc3ccccc3[nH]2)cc1", "strain or isolate": "MY330/88", "measure": "MIC", "value": ">62 µM"}
{"smiles": "CC1(CN)CCN(c2c(F)cc3c(=O)c(C(=O)O)cn(C4CC4)c3c2F)C1", "measure": "MIC50", "value": "16 µg/mL"}
{"smiles": "CCn1cc(C(=O)O)c(=O)c2cc(F)c(N3CCNCC3)cc21", "strain or isolate": "2 strains", "measure": "MIC", "value": ">5 µg/mL"}
{"smiles": "CC1CN(c2c(F)c(N)c3c(=O)c(C(=O)O)cn(C4CC4)c3c2F)CCN1C", "measure": "MIC90", "value": "2 µg/mL"}
{"smiles": "CCCCCCCCOC1OC(C)C(O[C@@H]2O[C@@H]([C@H](O)CO)[C@H](O)[C@H]2O)C(O)C1O", "strain or isolate": "NJ211", "measure": "MIC", "value": ">128 µg/mL"}
{"smiles": "NCC[C@H](O)C(=O)N[C@@H]1C[C@H](N)[C@@H](O[C@H]2O[C@H](CN)[C@@H](O)[C@H](O)[C@H]2O)[C@H](O)[C@H]1O[C@H]1O[C@H](CO)[C@@H](O)[C@H](N)[C@H]1O", "strain or isolate": "31 strains", "measure": "MIC", "value": "32 µg/mL"}
{"smiles": "CCNC(C)C1CCN(c2c(F)cc3c(=O)c(C(=O)O)cn(C4CC4)c3c2OC)C1", "measure": "MIC50", "value": "4 µg/mL"}

The last 3 rows once more:

smiles | strain or isolate | measure | value
CCCCCCCCOC1OC(C)C(O[C@@H]2O[C@@H]([C@H](O)CO)[C@H](O)[C@H]2O)C(O)C1O | NJ211 | MIC | >128 µg/mL
NCC[C@H](O)C(=O)N[C@@H]1C[C@H](N)[C@@H](O[C@H]2O[C@H](CN)[C@@H](O)[C@H](O)[C@H]2O)[C@H](O)[C@H]1O[C@H]1O[C@H](CO)[C@@H](O)[C@H](N)[C@H]1O | 31 strains | MIC | 32 µg/mL
CCNC(C)C1CCN(c2c(F)cc3c(=O)c(C(=O)O)cn(C4CC4)c3c2OC)C1 |  | MIC50 | 4 µg/mL